Measured values from several laboratories, pooled; numbers as filed in NIAID ChemDB.

Common to all: growth or infection tests

Inhibition is in % at the dose shown (toxicity tests: loss of growth or viability). a–b is a range or a potency band. Fold resistance has wild type as its base. Rows are shuffled and stem from different studies. ECn is the concentration giving n% inhibition of infection, replication or growth. MIC50, MIC90 and the like: level of inhibition, or share of isolates inhibited.

{"compound": "C=Cc1cn([C@@H]2O[C@H](CO)[C@@H](O)[C@@H]2O)c(=O)[nH]c1=O", "tested at": "0.1 µg/mL", "endpoint": "inhibition", "method": "plaque count", "species": "Varicella zoster virus", "strain or isolate": "KANNO", "cell line": "HELF", "value": "92%"}
{"compound": "CC1CCC(C(=O)N(c2cc(C#CC(C)(C)C)sc2C(=O)O)C2CCC(O)CC2)CC1", "endpoint": "fold resistance", "method": "luciferase", "species": "Hepatitis C virus", "strain or isolate": "Con1 (gt 1b)", "cell line": "Huh7", "mutations": "A486T", "value": "55.7"}
{"compound": "CCC(C)CC(C)CCCCCCCCC(=O)N[C@H]1C[C@@H](O)[C@H](NCCN)NC(=O)[C@@H]2[C@@H](O)CCN2C(=O)[C@H]([C@H](O)CCN)NC(=O)[C@H]([C@H](O)[C@@H](O)c2ccc(O)cc2)NC(=O)[C@@H]2C[C@@H](O)CN2C(=O)[C@H]([C@@H](C)O)NC1=O", "endpoint": "MIC", "method": "broth dilution", "species": "Cryptococcus gattii", "strain or isolate": "CBS 10865", "value": "16 µg/mL"}
{"compound": "Nc1nc2c(ncn2COC(CO)CO)c(=O)[nH]1", "tested at": "1 µM", "endpoint": "inhibition", "method": "hybridisation", "species": "Cytomegalovirus", "strain or isolate": "AD169", "cell line": "HFF", "value": "33%"}
{"compound": "COCc1ccc(CCCOc2cc(C)c(-c3noc(C(F)(F)F)n3)c(C)c2)nn1", "endpoint": "EC50", "method": "cytopathic effect", "species": "Enterovirus", "cell line": "HeLa", "value": "0.033–0.659 µg/mL"}
{"compound": "Nc1nc2c(ncn2COC(CO)CO)c(=O)[nH]1", "endpoint": "EC90", "method": "plaque count", "species": "Human cytomegalovirus", "strain or isolate": "VR6264 (ganciclovir-resistant)", "value": "33.7 µM"}
{"compound": "C[C@@H](c1ncncc1F)[C@](O)(Cn1cncn1)c1ccc(F)cc1F", "endpoint": "MIC50", "method": "broth dilution", "species": "Cryptococcus gattii", "strain or isolate": "VG IIb", "value": "0.063 µg/mL"}
{"compound": "Nc1nc2c(ncn2COC(CO)CO)c(=O)[nH]1", "endpoint": "EC50", "method": "plaque count", "species": "Human cytomegalovirus", "strain or isolate": "C8302", "cell line": "MRC-5", "value": "2.7 µM"}
{"compound": "CC(=O)c1ccc(CCCOc2c(C)cc(-c3noc(C(F)F)n3)cc2C)nn1", "endpoint": "EC50", "method": "cytopathic effect", "species": "Coxsackie virus", "cell line": "HeLa", "value": "0.033–0.659 µg/mL"}
{"compound": "CC(C)(C)c1ccc(CSc2ncnc3c2ncn3[C@@H]2O[C@H](CO)[C@@H](O)[C@H]2O)cc1", "tested at": "10 µM", "endpoint": "inhibition", "species": "Toxoplasma gondii", "strain or isolate": "RH adenosine kinase-deficient", "value": "0%"}
{"compound": "N#Cc1cc([N+](=O)[O-])ccc1Oc1ccc(Cl)c(Cl)c1", "tested at": "0.06 µg/mL", "endpoint": "inhibition", "method": "plaque count", "species": "Coxsackie virus", "strain or isolate": "TYPE B4", "cell line": "VERO", "value": "0%"}
{"compound": "Nc1nc2c(ncn2COC(CO)CO)c(=O)[nH]1", "endpoint": "EC50", "method": "plaque count", "species": "Human cytomegalovirus", "strain or isolate": "Recombinant C4 (D341E)", "value": "2.5 µM"}
{"compound": "OC[C@H]1O[C@@H](n2cnc3c(SCc4ccc(Cl)cc4Cl)ncnc32)[C@H](O)[C@@H]1O", "tested at": "10 µM", "endpoint": "inhibition", "species": "Toxoplasma gondii", "strain or isolate": "RH adenosine kinase-deficient", "value": "0%"}
{"compound": "O=C1C(c2[nH]c3ccc(S(=O)(=O)O)cc3c2O)=Nc2ccc(S(=O)(=O)O)cc21", "tested at": "5 µg/mL", "endpoint": "inhibition", "method": "cytopathic effect", "species": "Herpes simplex virus", "cell line": "Human amnion AV3 cells", "value": "0%"}
{"compound": "O=c1[nH]c(=O)n([C@H]2C[C@H](O)[C@@H](CO)O2)cc1Br", "tested at": "63.4 µg/mL", "endpoint": "inhibition", "method": "hybridisation", "species": "Murine polyoma virus", "cell line": "ME", "value": "88.8%"}
{"compound": "CCO/N=C/c1ccc(OCCC2CCN(c3ccc(Cl)nn3)CC2)cc1", "endpoint": "EC50", "method": "neutral red", "species": "Rhinovirus", "strain or isolate": "33342 (ICAM-1 receptor group 17)", "cell line": "KB", "value": "0.019 µM"}
{"compound": "Cc1cn([C@@H]2O[C@H](CO)[C@@H](O)[C@@H]2O)c(=O)[nH]c1=O", "tested at": "1 µg/mL", "endpoint": "inhibition", "method": "plaque count", "species": "Varicella zoster virus", "strain or isolate": "YS", "cell line": "HELF", "value": "100%"}
{"compound": "O=S(=O)(O)c1ccc2ccc(S(=O)(=O)O)cc2c1", "tested at": "10 µg/mL", "endpoint": "inhibition", "method": "cytopathic effect", "species": "Herpes simplex virus", "cell line": "Human amnion AV3 cells", "value": "0%"}
{"compound": "CCCc1ccc(CCCOc2c(C)cc(-c3nnn(C)n3)cc2C)o1", "endpoint": "EC50", "method": "cytopathic effect", "species": "Enterovirus", "cell line": "HeLa", "value": "0.033–0.659 µg/mL"}
{"compound": "NS(=O)(=O)O", "tested at": "5 µg/mL", "endpoint": "inhibition", "method": "cytopathic effect", "species": "Adenovirus", "strain or isolate": "TYPE 3", "cell line": "Human embryonic lung cells", "value": "0%"}
{"compound": "Cc1nc(-c2cc(C)c(OCCCc3ccc(C(F)F)nn3)c(C)c2)no1", "endpoint": "EC50", "method": "cytopathic effect", "species": "Coxsackie virus", "cell line": "HeLa", "value": "0.033–0.659 µg/mL"}
{"compound": "O=S(=O)(O)c1cccc2c(O)cccc12", "tested at": "10 µg/mL", "endpoint": "inhibition", "method": "cytopathic effect", "species": "Adenovirus", "strain or isolate": "TYPE 3", "cell line": "Human amnion AV3 cells", "value": "0%"}
{"compound": "CC(C)(O)c1cn(-c2ccc3ccccc3c2)nn1", "tested at": "2048 µg/mL", "endpoint": "inhibition", "method": "broth dilution", "species": "Candida albicans", "strain or isolate": "URM 4388", "value": "0%"}
{"compound": "Cc1ccc(C(=O)Nc2ccc(S(=O)(=O)O)c3cc(S(=O)(=O)O)cc(S(=O)(=O)O)c23)cc1NC(=O)c1cccc(NC(=O)Nc2cccc(C(=O)Nc3cc(C(=O)Nc4ccc(S(=O)(=O)O)c5cc(S(=O)(=O)O)cc(S(=O)(=O)O)c45)ccc3C)c2)c1", "tested at": "50 µg/mL", "endpoint": "inhibition", "method": "cytopathic effect", "species": "Adenovirus", "strain or isolate": "TYPE 3", "cell line": "Human amnion AV3 cells", "value": "10%"}
{"compound": "CCC(C)n1ncn(-c2ccc(N3CCN(c4ccc(OC[C@H]5CO[C@](Cn6cncn6)(c6ccc(Cl)cc6Cl)O5)cc4)CC3)cc2)c1=O", "tested at": "32 µg/mL", "endpoint": "inhibition", "method": "broth dilution", "species": "Aspergillus fumigatus", "strain or isolate": "AF293", "mutations": "sakA", "value": "99.95%"}
{"compound": "CC(C)(O)c1cn(-c2ccc([N+](=O)[O-])cc2)nn1", "tested at": "2048 µg/mL", "endpoint": "inhibition", "method": "broth dilution", "species": "Candida tropicalis", "strain or isolate": "URM 4790", "value": "0%"}
{"compound": "O=S(=O)([O-])c1ccc(NS(=O)(=O)c2ccccc2)c2c(S(=O)(=O)[O-])cccc12", "tested at": "50 µg/mL", "endpoint": "inhibition", "method": "cytopathic effect", "species": "Rhinovirus", "cell line": "Human amnion AV3 cells", "value": "10%"}
{"compound": "Cc1cc(OCCCc2ccc(C(C)F)nn2)cc(C)c1-c1noc(C(F)F)n1", "endpoint": "EC50", "method": "cytopathic effect", "species": "Enterovirus", "cell line": "HeLa", "value": "0.033–0.659 µg/mL"}
{"compound": "O=S(=O)(O)c1cc(O)c2c(O)c(N=Nc3ccccc3)c(S(=O)(=O)O)cc2c1", "tested at": "50 µg/mL", "endpoint": "inhibition", "method": "cytopathic effect", "species": "Adenovirus", "strain or isolate": "TYPE 3", "cell line": "Human embryonic lung cells", "value": "25%"}
{"compound": "O=C(NCc1ccc(Cl)cc1)c1c[nH]c2ccc(CCCO)cc2c1=O", "endpoint": "EC50", "method": "plaque count", "species": "Human cytomegalovirus", "strain or isolate": "SAL", "value": "0.7 µM"}
{"compound": "O=S(=O)(O)c1ccc(N=Nc2c(O)ccc3cc(S(=O)(=O)O)ccc23)cc1", "tested at": "10 µg/mL", "endpoint": "inhibition", "method": "cytopathic effect", "species": "Adenovirus", "strain or isolate": "TYPE 3", "cell line": "Human embryonic lung cells", "value": "0%"}
{"compound": "Cc1cn([C@@H]2O[C@H](CO)[C@@H](O)[C@@H]2F)c(=O)nc1N", "tested at": "0.1 µg/mL", "endpoint": "inhibition", "method": "plaque count", "species": "Varicella zoster virus", "strain or isolate": "HIRAI", "cell line": "HELF", "value": "100%"}
{"compound": "CC(C)(O)c1cn(-c2cccc3ccccc23)nn1", "tested at": "2048 µg/mL", "endpoint": "inhibition", "method": "broth dilution", "species": "Candida albicans", "strain or isolate": "URM 4260", "value": "0%"}
{"compound": "C=CCc1ccc(O)c(OC)c1", "endpoint": "MIC90", "method": "turbidity", "species": "Candida glabrata", "strain or isolate": "2994", "value": "500 µg/mL"}
{"compound": "CCc1ccc(CCCOc2cc(C)c(-c3noc(C(F)F)n3)c(C)c2)nn1", "endpoint": "EC50", "method": "cytopathic effect", "species": "Enterovirus", "cell line": "HeLa", "value": "0.033–0.659 µg/mL"}
{"compound": "C=C/C(C)=C/[C@@]1(C)SC(=O)C(C)=C1O", "endpoint": "MIC", "species": "Escherichia coli", "strain or isolate": "UB1005/PJTB3", "value": ">600 µM"}
{"compound": "O=c1[nH]c(=O)n([C@@H]2O[C@H](CO)[C@@H](O)[C@@H]2O)cc1/C=C/Cl", "tested at": "0.001 µg/mL", "endpoint": "inhibition", "method": "plaque count", "species": "Varicella zoster virus", "strain or isolate": "Asahikawa", "cell line": "HELF", "value": "63%"}
{"compound": "OC[C@H]1O[C@@H](n2c(Br)nc3cc(Cl)c(Cl)cc32)[C@H](O)[C@@H]1O", "endpoint": "EC50", "method": "plaque count", "species": "Human cytomegalovirus", "strain or isolate": "AD169", "cell line": "MRC-5", "value": "0.31 µM"}
{"compound": "CCc1ccc(CCCOc2ccc(-c3noc(C(F)F)n3)cc2)nn1", "endpoint": "EC50", "method": "cytopathic effect", "species": "Enterovirus", "cell line": "HeLa", "value": "0.033–0.659 µg/mL"}
{"compound": "O=S(=O)([O-])c1ccc2c(NS(=O)(=O)c3ccccc3)cc(S(=O)(=O)[O-])cc2c1", "tested at": "50 µg/mL", "endpoint": "inhibition", "method": "cytopathic effect", "species": "Herpes simplex virus", "cell line": "Human amnion AV3 cells", "value": "0%"}
{"compound": "O=C(N[C@@H](C(=O)N1CCC[C@H]1c1ncc(-c2ccc(-c3ccc(-c4cnc([C@@H]5CCCN5C(=O)[C@H](NC(=O)C5CC5)c5ccccc5)s4)cc3)cc2)s1)c1ccccc1)C1CC1", "endpoint": "fold resistance", "method": "luciferase / reporter gene", "species": "Hepatitis C virus", "strain or isolate": "genotype 1b", "cell line": "Huh7.5", "mutations": "P58T", "value": "162"}
{"compound": "O=c1[nH]c(=O)n([C@@H]2O[C@H](CO)[C@@H](O)[C@@H]2O)cc1/C=C/Br", "tested at": "0.0001 µg/mL", "endpoint": "inhibition", "method": "plaque count", "species": "Varicella zoster virus", "strain or isolate": "Ohtomo", "cell line": "HELF", "value": "85%"}
{"compound": "CC(C)(O)c1cn(-c2cccc([N+](=O)[O-])c2)nn1", "tested at": "2048 µg/mL", "endpoint": "inhibition", "method": "broth dilution", "species": "Candida krusei", "strain or isolate": "URM 934", "value": "0%"}
{"compound": "CC(C)N=C(N)/N=C(\\N)NOCCCOc1cc(Cl)c(Cl)cc1Cl", "endpoint": "MIC", "species": "Mycobacterium avium complex", "strain or isolate": "FAR", "value": "16 µg/mL"}

A second listing of 5 rows from above:

OC[C@H]1O[C@@H](n2c(Br)nc3cc(Cl)c(Cl)cc32)[C@H](O)[C@@H]1O ; endpoint: EC50 ; method: plaque count ; species: Human cytomegalovirus ; strain or isolate: AD169 ; cell line: MRC-5 ; value: 0.31 µM
Nc1nc2c(ncn2COC(CO)CO)c(=O)[nH]1 ; endpoint: EC50 ; method: plaque count ; species: Human cytomegalovirus ; strain or isolate: Recombinant C4 (D341E) ; value: 2.5 µM
CC1CCC(C(=O)N(c2cc(C#CC(C)(C)C)sc2C(=O)O)C2CCC(O)CC2)CC1 ; endpoint: fold resistance ; method: luciferase ; species: Hepatitis C virus ; strain or isolate: Con1 (gt 1b) ; cell line: Huh7 ; mutations: A486T ; value: 55.7
CCO/N=C/c1ccc(OCCC2CCN(c3ccc(Cl)nn3)CC2)cc1 ; endpoint: EC50 ; method: neutral red ; species: Rhinovirus ; strain or isolate: 33342 (ICAM-1 receptor group 17) ; cell line: KB ; value: 0.019 µM
Nc1nc2c(ncn2COC(CO)CO)c(=O)[nH]1 ; endpoint: EC90 ; method: plaque count ; species: Human cytomegalovirus ; strain or isolate: VR6264 (ganciclovir-resistant) ; value: 33.7 µM